# Experimental data taken from publication PMC5477490, “Human antibody 3E1 targets the HA stem region of H1N1 and H5N6 influenza A viruses” (2016).
# Columns and labels:
# [1] = molecular target: HA ectodomain of A/California/04/2009(H1N1) with G205C and R220C (influenza A virus A/California/04/2009(H1N1)); assay: crystal structure
# [2] = molecular target: HA ectodomain of A/California/04/2009(H1N1) with G205C and R220C (influenza A virus A/California/04/2009(H1N1)); assay: not stated; purified HA ectodomain in solution; data in Supplementary Fig. 2
substance,measurement,setting,value
HA ectodomain of A/California/04/2009(H1N1) with G205C and R220C (domain or fragment),stoichiometry N,[1],3
same,stoichiometry N,[2],3
